Anti-infective test results gathered from many reports (values: NIAID ChemDB through PubChem).

ICn: concentration for n% inhibition.

{"SMILES": "COc1ccc(CCNC(=O)c2ccc3c(c2)nc(-c2ccccc2)n3C2CCCCC2)cc1OC", "species": "Poliovirus", "read-out": "IC50", "test": "target", "protein": "RNA-dependent RNA polymerase", "result": ">25 µM"}
{"SMILES": "NC(=O)c1csc([C@@H]2O[C@H](CO)[C@@H](O)[C@H]2O)n1", "strain or isolate": "Nakayama", "species": "Japanese encephalitis virus", "read-out": "EC50", "test": "culture", "cells": "VERO 76", "result": "73 µg/mL"}
{"SMILES": "Cc1nc(C)c(-c2nc3cc(C(=O)N[C@H](C(=O)O)c4c[nH]c5ccc(O)cc45)ccc3n2C2CCCCC2)s1", "species": "Poliovirus", "read-out": "IC50", "test": "target", "protein": "RNA-dependent RNA polymerase", "result": ">25 µM"}
{"SMILES": "CCCCCCCCCCCCCCCCCC(=O)OC[C@@H](COP(=O)(O)OCCNCCO[C@@]1(C(=O)O)O[C@@H]([C@H](O)[C@H](O)CO)[C@H](NC(C)=O)[C@@H](O)[C@H]1F)OC(=O)CCCCCCCCCCCCCCCCC", "strain or isolate": "H6N1 A/DUCK/HK/13/76", "species": "Influenza A virus", "read-out": "IC50", "test": "target", "protein": "Sialidase", "result": "150 µM"}
{"SMILES": "CCCCCCCCCCCCCCCCCC(=O)OC[C@@H](COP(=O)(O)OCCNCCO[C@@]1(C(=O)O)O[C@@H]([C@H](O)[C@H](O)CO)[C@H](NC(C)=O)[C@@H](O)[C@H]1F)OC(=O)CCCCCCCCCCCCCCCCC", "strain or isolate": "H11N3 A/DUCK/44/3/76", "species": "Influenza A virus", "read-out": "IC50", "test": "target", "protein": "Sialidase", "result": "75 µM"}
{"SMILES": "CCCCCCCCCCCCC/C=C/[C@@H](O)[C@H](CO[C@@H]1O[C@H](CO)[C@H](O)[C@H](OS(=O)(=O)O)[C@H]1O)NC(=O)CCCCCCCCCCCCCCCCCCCCCCC", "strain or isolate": "H1N1 A/duck/Alberta/35/76", "species": "Influenza A virus", "dose": "200 µM", "read-out": "inhibition", "test": "target", "protein": "Sialidase", "result": "65.6%"}
{"SMILES": "COC(=O)[C@H](Cc1c[nH]c2ccc(OCC(=O)O)cc12)NC(=O)c1ccc2c(c1)nc(-c1ccccn1)n2C1CCCCC1", "species": "Poliovirus", "read-out": "IC50", "test": "target", "protein": "RNA-dependent RNA polymerase", "result": ">25 µM"}
{"SMILES": "O=c1[nH]cnc2c1ncn2[C@@H]1C=C(CO)[C@@H](O)[C@H]1O", "strain or isolate": "MPX", "species": "Monkeypox virus", "read-out": "EC50", "test": "culture", "cells": "VERO", "result": ">100 µg/mL"}
{"SMILES": "O=C(N[C@H](C(=O)O)c1c[nH]c2ccc(O)cc12)c1ccc2c(c1)nc(-c1ccccc1)n2C1CCCCC1", "species": "Poliovirus", "read-out": "IC50", "test": "target", "protein": "RNA-dependent RNA polymerase", "result": ">25 µM"}
{"SMILES": "Nc1ccn(C[C@@H](CO)OCP(=O)(O)O)c(=O)n1", "species": "Cowpox virus", "read-out": "EC50", "test": "culture", "cells": "VERO", "result": "13 µg/mL"}
{"SMILES": "Cc1cc2c(cc1C(=O)N[C@@H](Cc1c[nH]c3ccc(OCC(=O)O)cc13)C(=O)O)nc(-c1ccoc1)n2C1CCCCC1", "species": "Poliovirus", "read-out": "IC50", "test": "target", "protein": "RNA-dependent RNA polymerase", "result": ">25 µM"}
{"SMILES": "O=c1cnn([C@@H]2O[C@H](CO)[C@@H](O)[C@H]2O)c(=O)[nH]1", "species": "Camelpox virus", "read-out": "EC50", "test": "culture", "cells": "VERO 76", "result": "3.1 µM"}
{"SMILES": "CC(=O)NC(C(=O)N1CCCC(C)C1)[C@H]1CC(C(=O)O)C[C@@H]1N=C(N)N", "species": "Influenza A virus (H6N2)", "read-out": "IC50", "test": "target", "protein": "Neuraminidase", "result": "2.55 µM"}
{"SMILES": "O=C(NC1CCC(N2C(=O)CNC2=O)CC1)c1ccc2c(c1)nc(-c1ccoc1)n2C1CCCCC1", "species": "Poliovirus", "read-out": "IC50", "test": "target", "protein": "RNA-dependent RNA polymerase", "result": ">25 µM"}
{"SMILES": "CCCN(CCC)C(=O)C(NC(C)=O)[C@H]1C[C@@H](C(=O)O)C[C@@H]1N=C(N)N", "species": "Influenza A virus (H6N2)", "read-out": "IC50", "test": "target", "protein": "Neuraminidase", "result": "8.6 µM"}
{"SMILES": "Nc1nccc2c1ncn2[C@@H]1C[C@H](CO)[C@@H](O)[C@H]1O", "species": "Monkeypox virus", "read-out": "EC50", "test": "culture", "cells": "VERO", "result": "0.4 µg/mL"}
{"SMILES": "CCOC(=O)c1cccc(NC(=O)NC2CCC(NC(=O)c3ccc4c(c3)nc(-c3ccoc3)n4C3CCCCC3)CC2)c1", "species": "Poliovirus", "read-out": "IC50", "test": "target", "protein": "RNA-dependent RNA polymerase", "result": ">25 µM"}
{"SMILES": "CCN(CCO)C(=O)C(NC(C)=O)[C@H]1CC(C(=O)O)C[C@@H]1N=C(N)N", "species": "Influenza A virus (H6N2)", "read-out": "IC50", "test": "target", "protein": "Neuraminidase", "result": "0.72 µM"}
{"SMILES": "Nc1ncnc2c1ncn2[C@@H]1C=C(CO)[C@@H](O)[C@H]1O", "strain or isolate": "7124", "species": "Variola virus", "read-out": "EC50", "test": "culture", "cells": "VERO", "result": "0.03 µg/mL"}
{"SMILES": "Nc1ccn(C[C@H]2COP(=O)(O)CO2)c(=O)n1", "strain or isolate": "Isolate MINN124", "species": "Variola virus", "read-out": "EC50", "test": "culture", "cells": "VERO", "result": "9 µg/mL"}
{"SMILES": "C=CCNC(=O)C(NC(C)=O)[C@H]1CC(C(=O)O)C[C@@H]1N=C(N)N", "species": "Influenza A virus (H6N2)", "read-out": "IC50", "test": "target", "protein": "Neuraminidase", "result": "0.72 µM"}

Percent inhibition refers to the dose given; in toxicity tests it is the harm to the cells. Rows are shuffled and stem from different studies. ECn is the concentration giving n% inhibition of infection, replication or growth.